# Results reported in publication PMC3396687 (PLoS ONE, 2012).
# Experiment: Circular dichroism, secondary structure content
# Assay type: physicochemical
# Settings: 50% TFE, far-UV CD, original and water-subtracted spectra deconvoluted with CDPro, CDNN, KJ2D; 0.3 mg/mL
row,Compound,α-helix content
1,"KFWKRFWHWLQLKPGQPMY [IP3, 19-residue Iztli peptide]",up to 70%
2,CSCC[C@H](NC(=O)[C@@H]1CCCN1C(=O)[C@H](CCC(N)=O)NC(=O)CNC(=O)[C@@H]1CCCN1C(=O)[C@H](CCCCN)NC(=O)[C@H](CC(C)C)NC(=O)[C@H](CCC(N)=O)NC(=O)[C@H](CC(C)C)NC(=O)[C@H](Cc1c[nH]c2ccccc12)NC(=O)[C@H](Cc1c[nH]cn1)NC(=O)[C@H](Cc1c[nH]c2ccccc12)NC(=O)[C@H](Cc1ccccc1)NC(=O)[C@H](CCCNC(=N)N)NC(=O)[C@H](CC(N)=O)NC(=O)[C@H](CC(C)C)NC(=O)[C@H](Cc1ccccc1)NC(=O)[C@@H](N)CCCCN)C(=O)N[C@@H](Cc1ccc(O)cc1)C(=O)O [IP1],75–90%
3,"RRLKDFWHWLQLKPGQPMY [IP2, 19-residue Iztli peptide: α-pheromone with 6 residues added at the N-terminus]",75–90%
4,"RKLQKFWHWLQLKPGQPMY [IP4, 19-residue Iztli peptide]",up to 70%
